A mixed list of measured activities; the numbers were collected in NIAID ChemDB.

All rows: tests in culture; agent: Hepatitis C virus; method: replicon; endpoint: EC50

Lines come from different laboratories, so protocols vary.

SMILES,cells,strain,value
Clc1ncnc2c1ncn2C1C[C@H]2C[C@@H]1c1cscc12,Huh,1b,14 µM
N#Cc1c(Nc2cccc(Cl)c2)s[nH]c1=O,Huh7,-,1–10 µM
C[C@@]1(O)[C@H](O)[C@@H](CO)O[C@H]1n1cnc2c(N(CCO)CCO)ncnc21,Huh7,-,>100 µM
NC(=S)Nc1ccc(N2CCC3CCCCC3C2)cc1,Huh7,-,<1 µM
O=C(Cc1ccccc1)N/N=C/c1ccccc1OS(=O)(=O)c1ccccc1OC(F)(F)F,Huh7,-,>50 µM
CNC(=O)c1c(-c2ccc(F)cc2)oc2cc(-c3ccc(F)nc3)c(OC(C)C)cc12,Huh7,-,<10 µM
COc1cccc(CC(=O)N/N=C/c2cc(F)ccc2OS(=O)(=O)c2ccc(C(F)(F)F)cc2)c1,Huh7,-,<5 µM
CC(C)(NC(N)=S)c1ccc(Oc2ccccc2)cc1,Huh7,-,<1 µM
COc1cccc(CC(=O)N/N=C/c2ccccc2OS(=O)(=O)c2ccc(C(F)(F)F)cc2)c1,Huh7,-,<5 µM
N#Cc1c(Nc2ccccc2C(F)(F)F)s[nH]c1=O,Huh7,-,10–50 µM
CN(N)c1nc(N)nc2c1ncn2[C@@H]1O[C@H](COP(=O)(OCCSC(=O)C(C)(C)C)OCCC(=O)C(C)(C)C)[C@@H](O)[C@@]1(C)O,Huh7,-,0.0069 µM
CNC(=O)c1c(-c2ccc(F)cc2)oc2cc(-c3cncnc3)c(OC(C)C)cc12,Huh7,-,<10 µM
CCCCOC(=O)C1CCN(c2ccc(NC(N)=S)cc2F)CC1,Huh7,-,<1 µM
Clc1ncnc2c1ncn2C1C[C@H]2C[C@@H]1c1ccsc12,Huh,1b,21 µM
O=C(O)c1ccc2nc(-c3ccccn3)c(-c3ccccn3)nc2c1,Huh7,-,>50 µM
CN(NS(C)(=O)=O)c1nc(N)nc2c1ncn2[C@@H]1O[C@H](COP(=O)(OCCSC(=O)C(C)(C)C)OCCC(=O)C(C)(C)C)[C@@H](O)[C@@]1(C)O,Huh7,-,0.024 µM
Nc1ncnc2c1ncn2C1C[C@H]2C[C@@H]1[C@H]1CSC[C@@H]21,Huh,1b,27 µM
N#Cc1c(NCCc2ccc(O)cc2)s[nH]c1=O,Huh7,-,>50 µM
O=C(Cc1ccccc1)N/N=C/c1ccccc1OS(=O)(=O)c1cc(Cl)cc(Cl)c1,Huh7,-,5–50 µM
NC(=O)[C@H](Cc1c[nH]c2ccc(O)cc12)NC(=O)c1ccc2nc(-c3ccc(F)cc3)c(-c3ccc(F)cc3)nc2c1,Huh7,-,10–50 µM
CNC(=O)c1c(-c2ccc(F)cc2)oc2cc(-c3ccc(S(C)(=O)=O)cc3)c(OC(C)C)cc12,Huh7,-,<10 µM
N#Cc1c(Nc2ccc(Br)cn2)s[nH]c1=O,Huh7,-,10–50 µM
CNC(=O)c1c(-c2ccccc2)oc2ccc(COC)cc12,Huh7,-,<30 µM
CN(C)Nc1ncnc2c1ncn2[C@@H]1O[C@H](CO)[C@@H](O)[C@@]1(C)O,Huh7,-,5 µM
CCC[C@H](NC(=O)[C@@H]1C2CCCC2CN1C(=O)[C@@H](NC(=O)[C@@H](NC(=O)c1cnccn1)C(C)(C)C)C(C)(C)C)C(=O)C(=O)NC1CC1,Huh7,-,1 µM
CNC(=O)c1c(-c2ccc(F)cc2)oc2cc(N(C)C3CC3)c(OC(C)C)cc12,Huh7,-,<1 µM
CCC[C@H](NC(=O)[C@@H]1C2CCCC2CN1C(=O)[C@@H](NC(=O)[C@@H](NC(=O)c1cnccn1)C(C)CC)C(C)(C)C)C(=O)C(=O)NC1CC1,Huh7,-,1.2 µM
CNC(=O)c1c(-c2ccc(F)cc2)oc2cc(NS(C)(=O)=O)c(-c3cccs3)cc12,Huh7,-,<1 µM
CCC[C@H](NC(=O)[C@@H]1C[C@@H](Oc2nc(-c3ccccn3)nc3ccsc23)CN1C(=O)[C@@H](NC(=O)NC(C)(C)C)C(C)(C)C)C(=O)C(=O)NC1CC1,-,1b,<1 µM
COC(=O)[C@H](Cc1c[nH]c2ccc(O)cc12)NC(=O)c1ccc2nc(-c3ccc(F)cc3)c(-c3ccc(F)cc3)nc2c1,Huh7,-,10–50 µM
CONc1ncnc2c1ncn2[C@@H]1O[C@H](CO)[C@@H](O)[C@@]1(C)O,Huh7,-,40 µM
NC(=S)Nc1ccc(Oc2ccccc2)cc1,Huh7,-,<1 µM
O=C(Cc1ccccc1)N/N=C/c1ccccc1OS(=O)(=O)c1ccc(F)cc1,Huh7,-,5–50 µM
COc1ccc(Nc2s[nH]c(=O)c2C#N)cc1,Huh7,-,10–50 µM
CCC[C@H](NC(=O)[C@@H]1C2CCCC2CN1C(=O)[C@@H](NC(=O)[C@@H](NC(=O)c1cnccn1)C1CCCCC1)C(C)(C)C)C(=O)C(=O)N[C@@H](C)C(C)C,Huh7,-,0.86 µM
NC(=O)[C@H](Cc1c[nH]c2ccccc12)NC(=O)c1ccc2nc(-c3ccc(F)cc3)c(-c3ccc(F)cc3)nc2c1,Huh7,-,10–50 µM
NC(=S)Nc1cccc(OCc2ccc(F)c(F)c2)c1,Huh7,-,<1 µM
CN(N)c1ncnc2c1ncn2[C@@H]1O[C@H](COP(=O)(OCCSC(=O)C(C)(C)C)OCCC(=O)C(C)(C)C)[C@@H](O)[C@@]1(C)O,Huh7,-,0.045 µM
CCCC1CCC(c2ccc(NC(N)=S)cc2)CC1,Huh7,-,<1 µM
COc1cccc(CC(=O)N/N=C/c2ncccc2OS(=O)(=O)c2ccc(C(F)(F)F)cc2)c1,Huh7,-,5–50 µM
CC(NC(N)=S)c1ccc(OCc2ccccc2)cc1,Huh7,-,<1 µM
O=C(Cc1ccc(SC(F)(F)F)cc1)N/N=C/c1ccccc1OS(=O)(=O)c1ccc(C(F)(F)F)cc1,Huh7,-,5–50 µM
CC(C)(C)C(=O)CCOP(=O)(OCCSC(=O)C(C)(C)C)OC[C@H]1O[C@@H](n2cnc3c(NNS(C)(=O)=O)nc(N)nc32)[C@](C)(O)[C@@H]1O,Huh7,-,0.2 µM
Cc1ccc(Nc2s[nH]c(=O)c2C#N)cc1,Huh7,-,>50 µM
C[C@@]1(O)[C@H](O)[C@@H](CO)O[C@H]1n1cnc2c(ONC(=O)OCc3ccccc3)ncnc21,Huh7,-,<25 µM
CCC[C@H](NC(=O)[C@@H]1[C@H]2CCC[C@H]2CN1C(=O)[C@@H](NC(=O)[C@@H](NC(=O)c1cnccn1)C1CCCCC1)C(C)(C)C)C(=O)C(=O)N[C@@H](C)Cc1ccc(C)cc1,Huh7,-,0.47 µM
CCCCCCCCCCCCCCCC(=O)Nc1ccn([C@H]2CC[C@@H](COP(=O)(O)O[C@H]3C[C@H](n4cc(F)c(=O)[nH]c4=O)O[C@@H]3CO)O2)c(=O)n1,Huh7,P114/ET (WILD TYPE),0.001 µM
CNC(=O)c1c(-c2ccc(F)cc2)oc2cc(N(C)S(C)(=O)=O)c(OCC#N)cc12,Huh7,-,<1 µM
COc1cccc(N2C(=O)/C(=C/c3ccc(-c4ccccc4)s3)C(=O)N(c3ccc(Cl)cc3)C2=S)c1,-,-,5.1 µM
N#Cc1c(NC2CCCCC2)s[nH]c1=O,Huh7,-,>50 µM
C[C@@]1(O)[C@H](O)[C@@H](CO)O[C@H]1n1cnc2c(NNS(C)(=O)=O)ncnc21,Huh7,-,<25 µM
O=S(=O)(Cc1ccccc1)N/N=C/c1ccccc1NS(=O)(=O)c1ccc(C(F)(F)F)cc1,Huh7,-,5–50 µM
N#Cc1c(Nc2ccc(S(=O)(=O)Nc3ccccc3)cc2)s[nH]c1=O,Huh7,-,>50 µM

Repeating the final 4 entries:

| SMILES | cells | strain | value |
|---|---|---|---|
| N#Cc1c(NC2CCCCC2)s[nH]c1=O | Huh7 | - | >50 µM |
| C[C@@]1(O)[C@H](O)[C@@H](CO)O[C@H]1n1cnc2c(NNS(C)(=O)=O)ncnc21 | Huh7 | - | <25 µM |
| O=S(=O)(Cc1ccccc1)N/N=C/c1ccccc1NS(=O)(=O)c1ccc(C(F)(F)F)cc1 | Huh7 | - | 5–50 µM |
| N#Cc1c(Nc2ccc(S(=O)(=O)Nc3ccccc3)cc2)s[nH]c1=O | Huh7 | - | >50 µM |

An empty or dashed field is not shown. Two numbers with a dash give a range or band. ECn: concentration that inhibits the pathogen or its effect by n%.